Compound potency records, mixed from different reports. Data source: NIAID ChemDB in PubChem.

Shared fields: growth or infection tests; species: Mycobacterium tuberculosis

Lines come from different laboratories, so protocols vary.

SMILES	tested at	measure	conditions	strain	mutations	read by	result
CO[C@@H]1[C@H](O)[C@@H](C)O[C@@H](OC[C@H](C)[C@H]2OC(=O)[C@H](C)[C@@H](O[C@H]3C[C@@H](C)N(C)C[C@H](C)O3)[C@H](C)[C@@H](O[C@@H]3O[C@H](C)CC(=O)[C@H]3O)[C@@H](C)C[C@](C)(OC(=O)N3C[C@@H](C)O[C@@H](C)C3)C(=O)[C@H](C)[C@H](OC(=O)CC(C)C)[C@H]2C)[C@@H]1OC		MIC		H37Rv		resazurin	1.26 µM
CCCCCC(/C=C/C1C=CC(=O)C1C/C=C/CCCC(=O)OC)OC(C)=O	12.5 µg/mL	inhibition		H37Rv		BACTEC	4%
N/C(COc1ccccc1Cl)=N/NC(=O)c1ccncc1		MIC		INH-r			100 µg/mL
CN(C)CNC(=S)S		MIC		ETA-R			3.1 µg/mL
COc1ccc2nc3ccccc3c(Nc3ccc(/C(N)=N/NC(N)=O)cc3)c2c1		EC50		H37Rv			>6.25 µg/mL
CCc1nc2ncc(Cl)cn2c1C(=O)NCc1ccc(N2CCN(S(=O)(=O)CC(C)C)C=N2)cc1		EC50				fluorescence	0.013 µM
COc1ccc2nc3cc(Cl)ccc3c(Nc3ccc(/C(N)=N/NC(N)=O)cc3)c2c1		EC50		H37Rv			>6.25 µg/mL
CO[C@H]1/C=C/O[C@@]2(C)Oc3c(C)c(O)c4c(O)c(cc(OCC(=O)NNc5ccc(C)cc5)c4c3C2=O)NC(=O)/C(C)=C\C=C\[C@H](C)[C@H](O)[C@@H](C)[C@@H](O)[C@@H](C)[C@H](OC(C)=O)[C@@H]1C		EC50					0.001 µg/mL
Nc1ccc(C(=O)O)c(O)c1		MIC		H37Ra			0.025 µg/mL
O=c1c2c([nH]c3c1ccc1c(=O)c4c([nH]c13)CCCC4)CCCC2	12.5 µg/mL	inhibition		H37Rv		BACTEC	17%
CCOc1ccc(N2C(=O)/C(=C/c3ccco3)S/C2=N\c2ccccn2)cc1		MIC		H37Rv			≥25 µg/mL
Cc1ccccc1OCCCON1C(N)=NC(N)=NC1(C)C		MIC90		H37Rv	Overexpressing DHFR	resazurin / fluorescence	15.6 µM
C=CCN1C(=O)/C(=C\c2ccco2)S/C1=N\c1nc2ccccc2s1		MIC		H37Rv			≥25 µg/mL
CSC(=S)N/N=C(/C)Cc1ccccn1		MIC		INH-r			1.6 µg/mL
Cc1ccccc1Cn1ccc2c3c(N)nc(N)nc3ccc21		MIC90		H37Rv		resazurin / fluorescence	1 µM
N#Cc1c(N)sc2sc(-c3ccccc3)cc12		MIC	multidrug-resistant	MDR-TB			>97.5 µM
CCc1nc2cc(Cl)c(C)cn2c1C(=O)NCc1ccc(N2CCN(S(=O)(=O)C(F)(F)F)C=N2)c(F)c1		EC50				fluorescence	0.0055 µM
CCCN(C(=O)COc1cc2c(O)c3c(O)c(C)c4c(c13)C(=O)[C@@](C)(O/C=C/[C@H](OC)[C@@H](C)[C@@H](OC(C)=O)[C@H](C)[C@H](O)[C@H](C)[C@@H](O)[C@@H](C)/C=C/C=C(/C)C(=O)N2)O4)N1CCCCC1		EC50					0.045 µg/mL
CCc1nc2ccccc2n1CCCCOc1ccc(C)c(Cl)c1		MIC90		H37Rv-LP		turbidity / fluorescence	0.44 µM
CCOC(OCC)N1C(=O)C2(C(OCC)OCC)CC3C(OC(=O)N3N)c3cccc1c32		MIC bound		H37Rv		resazurin	>6.25 µg/mL
CCc1nc2ccc(C)cc2n1CCCCOc1ccccc1		MIC90		H37Rv-MA cydC::aph		turbidity / fluorescence	0.14 µM
N#Cc1c(N)sc2sc(-c3cccc4ccccc34)cc12		MIC		H37Rv			10.2 µM
Nc1ccc(C(=O)O)cc1S(=O)(=O)c1cc(C(=O)O)ccc1N		MIC bound		H37Rv		BACTEC	>12.5 µg/mL
NNC(=O)c1ccncc1		MIC		H37Ra			0.03 µg/mL
O=C(NCc1cnc(N2CCN(S(=O)(=O)C(F)(F)F)C=N2)c(F)c1)c1c(C(F)(F)F)nc2ncc(Cl)cn12		EC50				fluorescence	0.501 µM
CO[C@H]1/C=C/O[C@@]2(C)Oc3c(C)c(O)c4c(O)c(c(/C=N/N5CCN(C)CC5)c(O)c4c3C2=O)NC(=O)/C(C)=C\C=C\[C@H](C)[C@H](O)[C@@H](C)[C@@H](O)[C@@H](C)[C@H](OC(C)=O)[C@@H]1C		MIC90		H37Rv-MA cydC::aph		turbidity / fluorescence	0.031 µM
CC12CCC(O)CC1=CCC1C2CCC2(C)C(NC(=O)C3CCCN3C(=O)OCc3ccccc3)CCC12		MIC bound		H37Rv		BACTEC	>12.5 µg/mL
N#Cc1c(N)sc2sc(-c3ccc(Cl)cc3Cl)cc12		MIC	multidrug-resistant	MDR-TB			19.2 µM
CC1(C)N=C(N)N=C(N)N1OCCCOc1cc(Cl)c(Cl)cc1Cl		MIC90		H37Rv	Overexpressing DHFR	resazurin / fluorescence	15–30 µM
NNC(=O)c1ccncc1		MIC		5175			0.04–0.05 µg/mL
COc1cccc2c1C(=O)c1c(O)c3c(c(O)c1C2=O)C[C@@](O)(/C(C)=N/NC(=O)NN)C[C@@H]3OC1CC(N)C(O)C(C)O1.Cl		MIC		H37Rv		BACTEC	≥12.5 µg/mL
COc1ccc2nc3ccccc3c(Nc3ccc(C(C)=O)cc3)c2c1		EC50		H37Rv			>6.25 µg/mL
Nc1cccc2[nH]c(=O)c3ccccc3c12	12.5 µg/mL	inhibition		H37Rv		BACTEC	27%
CCc1nc2c(F)cc(C)cn2c1C(=O)NCc1ccc(N2CCN(S(=O)(=O)C(F)(F)F)C=N2)c(F)c1		EC50				fluorescence	0.000389 µM
CN1CCN(c2cc3c(cc2F)c(=O)c(C(=O)O)cn3-c2ccc(F)cc2)CC1		MIC50					2.7 µg/mL
CO[C@@H]1[C@H](O)[C@@H](C)O[C@@H](OC[C@H](C)[C@H]2OC(=O)[C@H](C)[C@@H](O[C@H]3C[C@@H](C)N(C)C[C@H](C)O3)[C@H](C)[C@@H](O[C@@H]3O[C@H](C)CC(=O)[C@H]3O)[C@@H](C)C[C@](C)(OC(=O)N3CCO[C@@H](C)C3)C(=O)[C@H](C)[C@H](OC(=O)CC(C)C)[C@H]2C)[C@@H]1OC		MIC		H37Rv		resazurin	1.6 µM
CCc1nc2ncc(Cl)cn2c1C(=O)NCc1ccc(N2CCC(S(=O)(=O)C(F)(F)F)C=N2)cc1		EC50				fluorescence	0.004 µM
C=CCN1C(=O)/C(=C/c2ccc(NC(C)=O)cc2)S/C1=N\c1nc2ccccc2s1		MIC		H37Rv			≥25 µg/mL
COc1ccc2nc3cc(Cl)ccc3c(Nc3ccc(S(N)(=O)=O)cc3)c2c1		EC50		H37Rv			<6.25 µg/mL
N/C(COc1ccc(Cl)cc1)=N/NC(=O)c1ccncc1		MIC		INH-r			25 µg/mL
CO[C@@H]1[C@H](O)[C@@H](C)O[C@@H](OC[C@H](C)[C@H]2OC(=O)[C@H](C)[C@@H](O[C@H]3C[C@@H](C)N(CCC(C)C)C[C@H](C)O3)[C@H](C)[C@@H](O[C@@H]3O[C@H](C)CC(=O)[C@H]3O)[C@@H](C)C[C@](C)(OC(=O)N3C[C@@H](C)O[C@@H](C)C3)C(=O)[C@H](C)[C@H](OC(=O)CC(C)C)[C@H]2C)[C@@H]1OC		MIC		H37Rv		resazurin	1 µM
CCOC(=O)c1nnc(-c2ccccc2)nc1Cl		MIC bound		H37Rv		BACTEC	>12.5 µg/mL
CCOc1ccc(N2C(=O)/C(=C/c3ccc(NC(C)=O)cc3)S/C2=N\c2ccccn2)cc1		MIC		H37Rv			≥25 µg/mL
COc1c2c(c(CC=C(C)C)c3oc(=O)c(-c4ccc(O)cc4)c(O)c13)OC(C)(C)C=C2		MIC		H37Rv		BACTEC	≥12.5 µg/mL
C=CCN1C(=O)/C(=C/c2cccc(OC)c2O)S/C1=N\c1nc2ccccc2s1		MIC		H37Rv			≥25 µg/mL
CO[C@H]1/C=C/O[C@@]2(C)Oc3c(C)c(O)c4c(O)c(cc(OCC(=O)N(C)N5CCCCC5)c4c3C2=O)NC(=O)/C(C)=C\C=C\[C@H](C)[C@H](O)[C@@H](C)[C@@H](O)[C@@H](C)[C@H](OC(C)=O)[C@@H]1C		EC50					9.09 µg/mL
CCOc1ccc(N2C(=O)/C(=C/c3ccccc3OC)S/C2=N\c2ccccn2)cc1		MIC		H37Rv			≥25 µg/mL
CN(C)c1ccc2nc3ccc(=[N+](C)C)cc-3sc2c1		MIC bound		H37Rv		BACTEC	>12.5 µg/mL
CCOC(=O)c1c(N)sc2sc(-c3ccc(Cl)cc3)cc12		MIC		H37Rv			9.3 µM
N/C(COc1ccc([N+](=O)[O-])cc1)=N/NC(=O)c1ccncc1		MIC		INH-r			25 µg/mL
NC(=O)c1cnccn1		MIC		CDC-BP98 niacin-positive			>2048 µg/mL
COc1ccc2nc3cc(Cl)ccc3c(Nc3ccc(C(C)=O)cc3)c2c1		EC50		H37Rv			<6.25 µg/mL
C=CCN1C(=O)/C(=C/c2ccccc2OC)S/C1=N\c1nc2ccccc2s1		MIC		H37Rv			≥25 µg/mL
Cc1cc(-c2cc3c(cc2F)c(=O)c(C(=O)O)cn3C2CC2)cc(C)n1		MIC		1620-6			0.25 µg/mL
CCOc1ccc(N2C(=O)/C(=C/c3cccs3)S/C2=N\c2ccccn2)cc1		MIC		H37Rv			≥25 µg/mL
COC(=O)C1=CO[C@@H](C)[C@@H]2CN3CCc4c([nH]c5ccccc45)[C@@H]3C[C@H]12		MIC bound		H37Rv		BACTEC	>12.8 µg/mL
CC1(C)N=C(N)N=C(N)N1OCCSCc1cc(Cl)sc1Cl		MIC90		H37Rv	Overexpressing DHFR	resazurin / fluorescence	>2 µM
Oc1ccc(CCN=C=S)cc1		MIC		P multidrug-resistant		visual reading	4 µg/mL
NCC(=O)N/N=C/c1ccc([N+](=O)[O-])o1		MIC		H37Rv			12.5 µg/mL
CCCN(C(=O)COc1cc2c(O)c3c(O)c(C)c4c(c13)C(=O)[C@@](C)(O/C=C/[C@H](OC)[C@@H](C)[C@@H](OC(C)=O)[C@H](C)[C@H](O)[C@H](C)[C@@H](O)[C@@H](C)/C=C/C=C(/C)C(=O)N2)O4)N(C)C		EC50					0.15 µg/mL
CCCC(=O)OC[n+]1ccc2c(C)c3[nH]c4ccc(OC)cc4c3c(C)c2c1	6.25 µg/mL	inhibition		H37Rv		resazurin	100%
N/C(COc1cccc(Cl)c1)=N/NC(=O)c1ccncc1		MIC		INH-r			50 µg/mL
COC1=NN(c2ccc(CNC(=O)c3c(C(F)F)nc4ccccn34)cc2)CCN1S(=O)(=O)C(F)(F)F		EC50				fluorescence	0.0832 µM
NC(=O)C1CCCN1C(=O)c1ccc[n+](CCCCCC[n+]2cccc(C(=O)N3CCCC3C(N)=O)c2)c1	12.5 µg/mL	inhibition		H37Rv		BACTEC	-14%
CC1CN(c2cc3c(cc2F)c(=O)c(C(=O)O)cn3-c2ccc(F)cc2F)CCN1		MIC50					1.4 µg/mL
CCOC(=O)c1nc2nc3cc(OC)c(OC)cc3cc2c(=O)[nH]1		MIC bound		H37Rv		BACTEC	>12.5 µg/mL
O=C(N/N=C(\COc1ccc(Cl)cc1)N=Cc1ccncc1)c1ccncc1		MIC		H37Rv(ATCC25584)			>100 µg/mL
CC1(C)N=C(N)N=C(N)N1OCCCOc1ccc(Cl)cc1Cl		MIC90		H37Rv	Overexpressing DHFR	resazurin / fluorescence	11.7 µM
O=C(Cc1nc2ccccc2[nH]c1=O)N/N=C/c1ccc2c(c1)CCC2		MIC bound		H37Rv		BACTEC	>12.5 µg/mL
CO[C@H]1/C=C/O[C@@]2(C)Oc3c(C)c(O)c4c(O)c(cc(OCC(=O)NNC(=O)c5ccncc5)c4c3C2=O)NC(=O)/C(C)=C\C=C\[C@H](C)[C@H](O)[C@@H](C)[C@@H](O)[C@@H](C)[C@H](OC(C)=O)[C@@H]1C		EC50					0.3 µg/mL
O=C(N/N=C/c1c[nH]c2ccccc12)C1CCCO1	12.5 µg/mL	inhibition		H37Rv		BACTEC	59%
Cc1c(Cc2ccccc2Br)cnc2nc(N)nc(N)c12		MIC90		H37Rv	Overexpressing DHFR	resazurin / fluorescence	30 µM
CCN(CC)CCSC(=S)N1c2ccccc2Sc2ccccc21	128 µg/mL	inhibition		H37Rv		BACTEC	100%
CCc1nc2ccccc2n1CCCCOc1ccc2sc(C)nc2c1		MIC90		H37Rv-LP		turbidity / fluorescence	1.7 µM

MIC bound: limit read from a one-dose screen. Inhibition is in % at the dose shown (toxicity tests: loss of growth or viability). A number after MIC or MFC names an inhibition level or a share of isolates. ECn is the concentration giving n% inhibition of infection, replication or growth. An empty or dashed field is not shown. a–b is a range or a potency band.